These are literature values, as cited in article PMC8025584, “Identification of multipotent drugs for COVID-19 therapeutics with the evaluation of their SARS-CoV2 inhibitory activity” (Computational and Structural Biotechnology Journal, 2021).

In this data set the test system is differentially expressed human proteins in COVID-19. As to conditions: gene FCER1G; ref DGIdb; cited from earlier work.

On to BENZYLPENICILLOYL POLYLYSINE, for which the interaction_types entry is listed as “agonist”.
